Results deposited as PubChem BioAssay AID504761 (Drosophila RNAi Screening Center, 2011).
The deposit covers about 22,000 reagents; shown is a random part of those that have a named target and a result. In the full data, 116 (0.52%) are marked active. 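Calls depend on retest data that are not deposited; infection was ranked per plate without normalising between plates; the unit of the infection score is not given.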 The raw values are shown without normalisation. Names joined by + are all predicted targets of the reagent. Further read-outs or replicates are left out here. Reagent sequences are not shown. Not given: the amount of reagent, the time to read-out.

Screen: 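Fly genes whose silencing reduces dengue virus type 2 infection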 (primary screen)
Cell system: D.Mel-2 cells from Drosophila
Reagent: long dsRNA against Drosophila genes
Conditions: infection with dengue virus type 2; dose and infection time not stated
Detection: 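Per well on two replicate plates, imaging gave the percent of cells positive for viral envelope protein, ranked by infection, and a nuclear count of cells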
Scale: infection score: higher = more virus-infected cells; cell count: higher = more cells in the well
Active means: 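Very low infection ranking in both replicate wells (chance probability at most 0.065), then a retest showing infection dropped 1.5-fold or more at p below 0.05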
Meaning of the calls: active = confirmed: knock-down lowers infection; inactive = not picked or not confirmed

Gene	DRSC id	infection score, replicate 1	infection score, replicate 2	cell count, replicate 1	Outcome
CG7024	DRSC18414	5.67	16.6	1694	inactive
CG7024	DRSC27277	25.7	2.21	5699	inactive
CanA-14F	DRSC23296	2.75	2.86	6836	inactive
CG8187	DRSC07099	23.3	14.3	6153	inactive
NC2alpha	DRSC04059	6.04	34.6	6857	inactive
NC2alpha	DRSC25348	2.8	1.05	6280	inactive
tll	DRSC17085	4.92	4.16	4328	inactive
tll	DRSC28584	8.29		2377	inactive
AP-1-2beta	DRSC19336		0.36	1183	inactive
AP-1-2beta	DRSC23868	1.62	2.93	5316	inactive
CG11790	DRSC14390	2.97	2.9	6362	inactive
GstE8	DRSC06678	17	23.2	6385	inactive
zf30C	DRSC03641	5.65	13.2	5146	inactive
Nup107	DRSC01999	24.2	29.2	2452	inactive
Ent1	DRSC00330	3.89	2.62	6036	inactive
mAChR-C	DRSC17890	4.09	7.05	6876	inactive
mAChR-C	DRSC27441	24.7	41.7	6235	inactive
CG13810	DRSC08344	3.54	8.62	6074	inactive
CG13810	DRSC22838	1.71	6.32	6334	inactive
CG13810	DRSC27859	8.17	11.2	6473	inactive
Obp83cd	DRSC12267	3.37	5.36	6558	inactive
Obp57e	DRSC05891	1.68	0.25	6082	inactive
t-Grip84	DRSC10904	3.58	1.41	6473	inactive
CG11581	DRSC19407		10.8	447	inactive
flip	DRSC12326	8.09	6.85	6354	inactive
CG31275	DRSC16919	3.31	5.15	6618	inactive
CG9130 + CG9133	DRSC08624	11.3	4.31	6447	inactive
CG9130 + CG9133	DRSC08625	6.04	13.2	6948	inactive
CG9130 + CG9133	DRSC22010	7.85	7.17	2051	inactive
CG9130 + CG9133	DRSC29697	23.5	6.7	5696	inactive
PIG-A	DRSC06982	24	8.58	4755	inactive
CG2772	DRSC00530	8.39	9.11	6809	inactive
CG2772	DRSC27114	23.6	24.6	5941	inactive
Dnaaf3	DRSC06684	3.8	14.3	6295	inactive
CG7860	DRSC20060	2.81	2.84	6802	inactive
f-cup	DRSC14139	7.91	8.88	6399	inactive
f-cup	DRSC28933	1.29		700	inactive
ec	DRSC18658	7.22	6.94	1828	inactive
ec	DRSC23902	1.02	0.78	6586	inactive
rl	DRSC07833	2.23	1.29	6135	inactive
rl	DRSC20742	1.22	0.23	5393	inactive
rl	DRSC21814	11.1	2.06	5449	inactive
CG42260	DRSC03953	4.34	1.03	5532	inactive
CG42260	DRSC04172	7.51	8.78	6844	inactive
CG42260	DRSC04385	12.6	11.2	6725	inactive
CG42260	DRSC29385	7.32	8.76	5645	inactive
Rbp	DRSC15724	2.2	5.26	5146	inactive
CG33098	DRSC22903	3.44	18.2	6334	inactive
Gs2	DRSC20250	20.6	7.92	6080	inactive
Gs2	DRSC26818	6.83	6.1	6676	inactive
CG32040	DRSC22459	0.69	2.2	6492	inactive
CG2736	DRSC04314	14.8	32.3	6352	inactive
ACXD	DRSC07843	5.81	2.86	6022	inactive
ACXD	DRSC23762	10	10.3	5558	inactive
ldd	DRSC20558	4.56	0.08	5766	inactive
ldd	DRSC22696	2.79	6.58	6947	inactive
Grip	DRSC18395	3.62	7.27	6279	inactive
Grip	DRSC26610	2.57	3.4	5609	inactive
CG7714	DRSC16300	15.5	5.5	2609	inactive
CG7714	DRSC24753	4.52	5.72	6610	inactive
CG32713	DRSC22766	3.16	9.22	5704	inactive
CG5674	DRSC23176	0.93	16.3	5355	inactive
CG5674	DRSC28320	10.8	11.3	6020	inactive
CG11964	DRSC14447	18.5	18.2	5266	inactive
CG11964	DRSC25900	2.18	2.38	6147	inactive
Ptpmeg	DRSC08684	3.96	5.92	6771	inactive
Ptpmeg	DRSC26348	6.51	2.83	6639	inactive
Rab6	DRSC03404	6.72	7.87	6671	inactive
Rab6	DRSC25636	18.9	2.79	6477	inactive
CG9459	DRSC16496	1.59	8.4	6495	inactive
CG1951	DRSC15403	1.6	2.23	5743	inactive
CG6565	DRSC02970	13.7	6.55	6594	inactive
CG7251	DRSC03039	2.74	1.66	5686	inactive
CG7251	DRSC28293	11.5	14.1	3804	inactive

In a second layout: 10 of the entries above
Gene | DRSC id | infection score, replicate 1 | infection score, replicate 2 | cell count, replicate 1 | Outcome
CG11790 | DRSC14390 | 2.97 | 2.9 | 6362 | inactive
GstE8 | DRSC06678 | 17 | 23.2 | 6385 | inactive
zf30C | DRSC03641 | 5.65 | 13.2 | 5146 | inactive
Nup107 | DRSC01999 | 24.2 | 29.2 | 2452 | inactive
Ent1 | DRSC00330 | 3.89 | 2.62 | 6036 | inactive
mAChR-C | DRSC17890 | 4.09 | 7.05 | 6876 | inactive
mAChR-C | DRSC27441 | 24.7 | 41.7 | 6235 | inactive
CG13810 | DRSC08344 | 3.54 | 8.62 | 6074 | inactive
CG13810 | DRSC22838 | 1.71 | 6.32 | 6334 | inactive
CG13810 | DRSC27859 | 8.17 | 11.2 | 6473 | inactive
